Assay results reported in US20240092860.

Key:
[1] = target: T1, rhesus CD38 on BLCL-C162 cells, rhesus, Q5VAN0 1-301; assay: cell-based or functional assay
T1 sequence: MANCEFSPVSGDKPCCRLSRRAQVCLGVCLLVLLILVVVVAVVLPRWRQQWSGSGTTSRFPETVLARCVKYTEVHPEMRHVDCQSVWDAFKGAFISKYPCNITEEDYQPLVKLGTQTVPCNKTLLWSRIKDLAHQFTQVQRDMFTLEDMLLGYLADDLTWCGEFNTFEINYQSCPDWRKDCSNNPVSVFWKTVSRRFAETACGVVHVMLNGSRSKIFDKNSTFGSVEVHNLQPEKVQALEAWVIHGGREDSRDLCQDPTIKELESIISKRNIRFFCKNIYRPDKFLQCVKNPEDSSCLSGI

[2] = target: T2, recombinant cynomolgus CD38 protein (Sino Biological), cynomolgus monkey, Q5VAN0 44-301
T2 sequence: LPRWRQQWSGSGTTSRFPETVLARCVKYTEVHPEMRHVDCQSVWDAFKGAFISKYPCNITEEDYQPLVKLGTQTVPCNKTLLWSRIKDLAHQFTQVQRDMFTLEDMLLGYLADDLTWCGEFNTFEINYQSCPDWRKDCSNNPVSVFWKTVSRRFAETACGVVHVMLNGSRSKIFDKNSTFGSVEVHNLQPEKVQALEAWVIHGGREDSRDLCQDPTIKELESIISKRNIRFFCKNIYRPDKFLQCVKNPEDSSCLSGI

[3] = target: human CD38 on the surface of CD38 positive human cells (MOLP-8, H929, ST486, Daudi, ANBL6, RPMI8226,, Homo sapiens, P28907 1-300); assay: cell-based or functional assay
[4] = target: recombinant human CD38 protein (Sino Biological), human, P28907 43-300; assay: ELISA, plate-coated recombinant human CD38, detection by anti-toxin antibody

Row | Substance | Cytotoxicity CD50, rhesus BLCL-C162 cells [1] | Kd [2] | Cytotoxicity CD50, Daudi cells [3] | Cytotoxicity CD50, H929 cells [3] | Cytotoxicity CD50, MOLP-8 cells [3] | Cytotoxicity CD50, ST486 cells [3] | Kd [4]
1 | CD38-binding protein #2 (SEQ ID NO:77) | 1130 ng/mL | 0.644 µg/mL | – | – | – | – | –
2 | CD38-binding protein #4 (SEQ ID NO:79) | 26 ng/mL | 0.67 µg/mL | – | – | – | – | –
3 | CD38-binding protein #1 (SEQ ID NO:76) | 4620 ng/mL | – | – | – | – | – | –
4 | CD38-binding protein #3 (SEQ ID NO:78) | – | 0.247 µg/mL | 0.8 ng/mL | 0.2 ng/mL | 2.2 ng/mL | < 0.1 ng/mL | 0.0133 µg/mL
